Results on 5 compounds are retold here after publication PMC5209718, “Piscidin-1-analogs with double L- and D-lysine residues exhibited different conformations in lipopolysaccharide but comparable anti-endotoxin activities” (Scientific Reports, 2017).

Residues, ends and D or L forms follow the SMILES beside them.

Data set [1] in a line: Circular dichroism, helical structure in zwitterionic lipid vesicles. It counts as physicochemical. The settings on record: CD, from [θ]222; zwitterionic PC/Chol (8:1, w/w) vesicles ~500 μM; peptide ~25 μM. Background: CD spectra are sensitive to the conformation of chiral molecules.
Data set [2] is described as follows: Circular dichroism, helical structure in negatively charged lipid vesicles. Format: physicochemical. The settings on record: CD, from [θ]222; negatively charged PC/PG (3:1 w/w) vesicles ~500 μM; peptide ~25 μM.

As for `CC[C@H](C)[C@H](NC(=O)CNC(=O)[C@H](CCCNC(=N)N)NC(=O)[C@H](Cc1ccccc1)NC(=O)[C@@H](NC(=O)[C@H](Cc1c[nH]cn1)NC(=O)[C@H](Cc1c[nH]cn1)NC(=O)[C@H](Cc1ccccc1)NC(=O)[C@@H](N)Cc1ccccc1)[C@@H](C)CC)C(=O)N[C@H](C(=O)N[C@@H](Cc1c[nH]cn1)C(=O)N[C@H](C(=O)NCC(=O)N[C@@H](CCCCN)C(=O)N[C@H](CCCCN)C(=O)N[C@H](C(=O)N[C@@H](Cc1c[nH]cn1)C(=O)N[C@@H](CCCNC(=N)N)C(=O)N[C@@H](CC(C)C)C(=O)N[C@H](C(=O)N[C@H](CCCCN)C(=O)NCC(N)=O)C(C)C)[C@@H](C)CC)C(C)C)C(C)C` [T15,21dK Piscidin-1] (HELM PEPTIDE1{F.F.H.H.I.F.R.G.I.V.H.V.G.K.[dK].I.H.R.L.V.[dK].G.[am]}$$$$V2.0), the “% α-Helix in PC/Chol” value in data set [1] turned out to be 9.51%. The “% α-Helix in PC/PG” value in data set [2] worked out at 42.99%.
The corresponding values for `CC[C@H](C)[C@H](NC(=O)CNC(=O)[C@H](CCCNC(=N)N)NC(=O)[C@H](Cc1ccccc1)NC(=O)[C@@H](NC(=O)[C@H](Cc1c[nH]cn1)NC(=O)[C@H](Cc1c[nH]cn1)NC(=O)[C@H](Cc1ccccc1)NC(=O)[C@@H](N)Cc1ccccc1)[C@@H](C)CC)C(=O)N[C@H](C(=O)N[C@@H](Cc1c[nH]cn1)C(=O)N[C@H](C(=O)NCC(=O)N[C@@H](CCCCN)C(=O)N[C@H](CCCCN)C(=O)N[C@H](C(=O)N[C@@H](Cc1c[nH]cn1)C(=O)N[C@@H](CCCNC(=N)N)C(=O)N[C@@H](CC(C)C)C(=O)N[C@H](C(=O)N[C@H](C(=O)NCC(N)=O)[C@@H](C)O)C(C)C)[C@@H](C)CC)C(C)C)C(C)C` [T15dK Piscidin-1] (HELM PEPTIDE1{F.F.H.H.I.F.R.G.I.V.H.V.G.K.[dK].I.H.R.L.V.T.G.[am]}$$$$V2.0) are 28.03% and 45.40%.
As to “H-FFHHIFRGIVHVGKKIHRLVKG-NH2 [T15,21K Piscidin-1]”, the “% α-Helix in PC/Chol” value in data set [1] turned out to be 27.33%. The “% α-Helix in PC/PG” value in data set [2] was found to be 59.59%.
Turning to “H-FFHHIFRGIVHVGKKIHRLVTG-NH2 [T15K Piscidin-1]”, in data set [1], the “% α-Helix in PC/Chol” value came to 46.59%. Further, in data set [2], the “% α-Helix in PC/PG” value was 59.89%.
The corresponding values for “H-FFHHIFRGIVHVGKTIHRLVTG-NH2 [Piscidin-1]” are 50.29% and 61.02%.
